A mixed list of measured activities; the numbers were collected in NIAID ChemDB.

All rows: whole-cell or culture tests; species: Aspergillus fumigatus; read-out: MIC

Lines come from different laboratories, so protocols vary. Blank or dashed fields: not listed here.

smiles,strain or isolate,method,value
COC(=O)N[C@H](C(=O)NN(CC[C@@]1(Cc2ccccc2)C(=O)N(C2c3ccccc3C[C@H]2O)C[C@H]1O)Cc1ccc(-c2cccnc2)cc1)C(C)(C)C,RCMB 002003,agar,7.8 µg/mL
Cc1ccc2c(c1)nc1c(CN)c(-c3c(-c4ccc(F)cc4)[nH]c4ccccc34)c(CN)c(N)n12,MTCC 3008,broth dilution,>1000 µg/mL
Oc1ccc(C(=S)Nc2cccc(Cl)c2Cl)c(O)c1,-,-,31.25 µg/mL
CN(Cc1cccc2ccccc12)/N=C\c1ccc(C(C)(C)c2ccccc2)cc1,-,-,>64 µg/mL
C[C@@H](n1ccn(-c2ccc(OC(F)(F)C(F)F)cc2)c1=O)C(O)(Cn1cncn1)c1ccccc1F,TIMM1728,-,2 µg/mL
Cc1onc(-c2ccccc2)c1C=O,Clinical isolates,-,50 µg/mL
CCC(C)c1ccc(NC(=S)c2ccc(O)cc2O)cc1,-,-,125 µg/mL
O=C1CS[C@H](c2ccccc2)N1c1nc(N2CCOCC2)n[nH]1,168.95,broth dilution,100 µg/mL
NC(=O)c1ccc(NC(=S)c2ccc(O)cc2O)cc1,-,-,>250 µg/mL
Cc1ccc(-c2[nH]c3ccccc3c2-c2c(CN)c(N)n3c(nc4cc(C)ccc43)c2CN)cc1,MTCC 3008,broth dilution,500 µg/mL
CCCCCCCCCC(=O)NC(CCCN)C(=O)NC(CCCN)C(=O)NC(CCCN)C(N)=O,ATCC 42203,broth dilution,50 µg/mL
COc1ccc(NC(=S)c2ccc(O)cc2O)cc1,-,-,500 µg/mL
O=Cc1cc(-c2c(Cl)cccc2Cl)no1,Clinical isolates,-,>50 µg/mL
CCCCCCCC(=O)NC(CCCN)C(=O)NC(CCCN)C(=O)NC(CCCN)C(N)=O,ATCC 42203,broth dilution,>100 µg/mL
Cc1noc(NS(=O)(=O)c2ccc(N)cc2)c1C,IFM 47450,-,128 µg/mL
C[C@@H](n1ccn(-c2ccc(OC(F)(F)F)cc2)c1=O)C(O)(Cn1cncn1)c1ccc(F)cc1F,437,-,4 µg/mL
CN(Cc1cccc2ccccc12)/N=C\c1ccc(Cl)cc1,-,-,>64 µg/mL
N#Cc1ccc(-c2[nH]c3ccccc3c2-c2c(CN)c(N)n3c(nc4ccccc43)c2CN)cc1,MTCC 3008,broth dilution,1000 µg/mL
CC(C)S(=O)(=O)N1CCN(c2cnn(-c3cc(F)cc(F)c3)c(=O)c2OC2CCC(F)C2)CC1,ND158,broth dilution,0.25 µg/mL
NCc1c(-c2c(-c3ccc([N+](=O)[O-])cc3)[nH]c3ccccc23)c(CN)c2nc3ccccc3n2c1N,MTCC 3008,broth dilution,1000 µg/mL
Cc1ccc(C(C)C)c(O)c1,F17,-,0.16 µg/mL
O=C(N/N=C/c1cc([N+](=O)[O-])ccc1O)c1ccc(I)cc1,293,-,0.4 µg/mL
C[C@@H](N1CCN(c2ccc(C(F)(F)F)cc2)C1=O)C(O)(Cn1cncn1)c1ccc(F)cc1F,TIMM1728,-,1 µg/mL
Cc1ccc2c(c1)nc1c(CN)c(-c3c(-c4ccccc4)[nH]c4ccccc34)c(CN)c(N)n12,MTCC 3008,broth dilution,>1000 µg/mL
CCCC[C@@H](C)/C=C(C)/C=C(\C)C(=O)N/C(=C/[C@@](C)(O)/C=C/C=C/C=C/C(=O)NC1=C(O)CCC1=O)C(=O)[C@@H]1CO1,1,broth dilution,200 µM
CCC(C)CC(C)CCCCCCCCC(=O)N[C@H]1C[C@@H](O)[C@H](NCCN)NC(=O)[C@@H]2[C@@H](O)CCN2C(=O)[C@H]([C@H](O)CCN)NC(=O)[C@H]([C@H](O)[C@@H](O)c2ccc(O)cc2)NC(=O)[C@@H]2C[C@@H](O)CN2C(=O)[C@H]([C@@H](C)O)NC1=O,ATCC 204305,broth dilution,128 µg/mL
COC(=O)N[C@H](C(=O)NN(CC[C@@]1(Cc2ccccc2)C(=O)N(C2c3ccccc3C[C@H]2O)C[C@H]1O)Cc1ccc(Br)cc1)C(C)(C)C,RCMB 002003,agar,7.8 µg/mL
CC(/C=C/C=C(\C)C(O)C(C)C(=O)O[C@H]1C[C@@H](C)C=C2C=C[C@]3(C)O[C@@H](O)CC(=O)[C@]3(C)[C@H]21)=C\C=C\C(=O)O,AC3448,-,50 µg/mL
Oc1ccc(C(=S)Nc2ccccc2F)c(O)c1,-,-,125 µg/mL
C[C@H]1[C@H](O)[C@@H](C)/C=C/C=C/C=C/C=C/C=C/C=C/C=C/[C@H](O[C@@H]2O[C@H](C)[C@@H](O)[C@H](N)[C@@H]2O)C[C@@H]2O[C@](O)(C[C@@H](O)C[C@@H](O)CC[C@H](O)[C@@H](O)C[C@@H](O)CC(=O)O[C@H]1C)C[C@H](O)[C@H]2C(=O)O,Clinical isolate,absorbance,0.5 µg/mL
Cc1cc(NS(=O)(=O)c2ccc(N)cc2)no1,IFM 51126,-,64 µg/mL
O=c1c(N2CCOCC2)c(N2CCN(S(=O)(=O)Cc3ccccc3)CC2)cnn1-c1ccccc1,ND256,broth dilution,25 µg/mL
Nc1ccc(S(=O)(=O)Nc2ccnn2-c2ccccc2)cc1,IFM 48051,-,64 µg/mL
CC1S[C@H](c2ccc(Cl)cc2)N(c2nc(N3CCN(C)CC3)n[nH]2)C1=O,168.95,broth dilution,10 µg/mL
CC(N1CCN(c2ccc(-n3cnnn3)cc2)C1=O)[C@@](O)(Cn1cncn1)c1ccc(F)cc1F,TIMM1728,-,>64 µg/mL
Cc1ccc(-c2[nH]c3ccccc3c2-c2c(CN)c(N)n3c(nc4ccccc43)c2CN)cc1,MTCC 3008,broth dilution,1000 µg/mL
CN1CCN(c2n[nH]c(N3C(=O)CS[C@@H]3c3ccc4c(c3)OCO4)n2)CC1,168.95,broth dilution,50 µg/mL
CN[C@@H]1[C@H](O[C@@H]2OC[C@@H](O)[C@H](O)[C@H]2O)[C@@H](O)[C@H](O[C@H]2c3cc(C)c(C(=O)N[C@H](C)C(=O)O)c(O)c3-c3c(cc4c(c3O)C(=O)c3cc(OC)cc(O)c3C4=O)[C@@H]2O)O[C@@H]1C,IAM2034,-,3.1 µg/mL
CCCCCCCCCCCCCC(=O)NC(CCCN)C(=O)NC(CCCN)C(N)=O,ATCC 42203,broth dilution,12.5 µg/mL
Oc1ccc(C(=S)Nc2cc(Cl)ccc2Cl)c(O)c1,-,-,31.25 µg/mL
CN(Cc1cccc2ccccc12)/N=C\Cc1ccccc1,-,-,>64 µg/mL
COc1cc(NS(=O)(=O)c2ccc(N)cc2)nc(OC)n1,IFM 53412,-,≥256 µg/mL
Cc1ccc2c(c1)nc1c(CN)c(-c3c(-c4ccc([N+](=O)[O-])cc4)[nH]c4ccccc34)c(CN)c(N)n12,MTCC 3008,broth dilution,1000 µg/mL
CN(Cc1cccc2ccsc12)/N=C\C=C\c1ccccc1,-,-,>64 µg/mL
Cc1ccc([C@H]2SCC(=O)N2c2nc(N3CCN(C)CC3)n[nH]2)cc1,168.95,broth dilution,10 µg/mL
Cc1onc(-c2cccc(Br)c2)c1C=O,Clinical isolates,-,12.5 µg/mL
C[C@@H](n1ccn(-c2ccc(C(F)(F)F)cc2)c1=O)C(O)(Cn1cncn1)c1ccc(F)cc1F,437,-,4 µg/mL
CN(Cc1cccc2ccccc12)/N=C\c1ccc2ccccc2c1,-,-,>64 µg/mL
CC(N1CCN(c2ccc(-n3cnnn3)cc2)C1=O)[C@](O)(Cn1cncn1)c1ccc(F)cc1F,437,-,0.5 µg/mL
COC(=O)N[C@H](C(=O)NN(CC[C@@]1(Cc2ccccc2)C(=O)N(C2c3ccccc3C[C@H]2O)C[C@H]1O)Cc1ccc(-c2ccncc2)cc1)C(C)(C)C,RCMB 002003,agar,15.6 µg/mL
Cc1onc(-c2ccc(Cl)cc2)c1C=O,Clinical isolates,-,25 µg/mL
Cc1ccc2c(c1)nc1c(CN)c(-c3c(-c4ccc(C#N)cc4)[nH]c4ccccc34)c(CN)c(N)n12,MTCC 3008,broth dilution,500 µg/mL
O=C(O)CNC(=O)c1ccc(NC(=S)c2ccc(O)cc2O)cc1,-,-,>250 µg/mL
COc1ccc(-c2[nH]c3ccccc3c2-c2c(CN)c(N)n3c(nc4ccccc43)c2CN)cc1,MTCC 3008,broth dilution,1000 µg/mL
COC(=O)N[C@H](C(=O)NN(CC[C@]1(Cc2ccccc2)C(=O)N(C2c3ccccc3C[C@H]2O)C[C@@H]1O)Cc1ccc(Br)cc1)C(C)(C)C,RCMB 002003,agar,7.8 µg/mL
O=Cc1cc(-c2ccccc2Cl)no1,Clinical isolates,-,>50 µg/mL
COC(=O)N[C@H](C(=O)NN(CCC[C@@]1(Cc2ccccc2)C(=O)N(C2c3ccccc3C[C@H]2O)C[C@H]1O)Cc1ccc(Br)cc1)C(C)(C)C,RCMB 002003,agar,15.6 µg/mL
CN(Cc1cccc2ccsc12)/N=C\c1ccccc1,-,-,>64 µg/mL

Repeating the first 3 entries:

smiles,strain or isolate,method,value
COC(=O)N[C@H](C(=O)NN(CC[C@@]1(Cc2ccccc2)C(=O)N(C2c3ccccc3C[C@H]2O)C[C@H]1O)Cc1ccc(-c2cccnc2)cc1)C(C)(C)C,RCMB 002003,agar,7.8 µg/mL
Cc1ccc2c(c1)nc1c(CN)c(-c3c(-c4ccc(F)cc4)[nH]c4ccccc34)c(CN)c(N)n12,MTCC 3008,broth dilution,>1000 µg/mL
Oc1ccc(C(=S)Nc2cccc(Cl)c2Cl)c(O)c1,-,-,31.25 µg/mL